From paper PMC7412550 (Viruses, 2020)

test system: HIV-1 NL4-3 K103N-Y181C strain; assay: Antiviral assay: inhibition of virus-induced cytotoxicity in MT4 cells; conditions: Human immunodeficiency virus 1, NL43, MT4, 120 h, read-out: HIV-1 K103N-Y181C MT4 EC50

Structure (SMILES)	EC50 [µM]
O=C(N/N=C/c1ccccc1O)c1cc(O)c(O)c(O)c1 [Compound 13, N’-(2-hydroxy-benzylidene)-3,4,5-trihydroxybenzoylhydrazone]	12.4 ± 0.8
O=C1Nc2ccc(Cl)cc2[C@@](C#CC2CC2)(C(F)(F)F)O1 [EFV, efavirenz]	> 1.58
O=C(N/N=C/c1cc(O)c(O)cc1O)c1cc(O)c(O)c(O)c1 [Compound 21]	8.7 ± 0.1
Cc1cn([C@H]2C[C@H](N=[N+]=[N-])[C@@H](CO)O2)c(=O)[nH]c1=O [AZT, azidothymidine]	0.0031 ± 0.0007
Cc1nnc(C(=O)NC(C)(C)c2nc(C(=O)NCc3ccc(F)cc3)c(O)c(=O)n2C)o1 [RAL, raltegravir]	0.004 ± 0.001

same assay, conditions: read-out: HIV-1 K103N-Y181C MT4 EC50; HIV-1 NL4-3 K103N-Y181C, MT4 cells, MTT, 5 days post infection; mean and SD of three experiments

Structure (SMILES)	EC50 [µM]
CCOC(=O)C(=O)CC(=O)/C=C/c1cccn1Cc1ccccc1Cl [RDS1759]	4.6 ± 1.1
